Drawing on PubChem BioAssay (NCATS), this text covers AC50 for one compound.

The structures appear in SMILES notation. The list shows a part of the results, in another mix than the full data. Calls of active or inactive are those of the source. How the calls were made is not given here.

The conditions of assay [1]: Ebola virus entry assay, ratio channel.
For assay [2] the following is noted: Ebola virus entry assay, reporter ratio channel; Channel type: primary.

For the compound `OCCN1CCN(CC/C=C2/c3ccccc3Sc3ccc(C(F)(F)F)cc32)CC1`, the AC50 in assay [1] and in assay [2] was active: 3.16 µM in each case.
